From PMC10899660, “Global fungal-host interactome mapping identifies host targets of candidalysin” (Nature Communications, 2024)

Tested on: CAK complex
Assay: CAK kinase activity in vitro (ADP-Glo kinase assay)
Format: biochemical
Conditions: increasing concentrations of candidalysin
From the text: We postulated that the binding of candidalysin to CCNH might be critical for activation of CAK activity to regulate DNA damage repair. […] The importance of this finding is that candidalysin not only induces DNA damage, it may have evolved to specifically recognize CCNH and activate CAK complex, leading to suppression of DDR.

With CC[C@H](C)[C@H](NC(=O)CNC(=O)[C@H](CCSC)NC(=O)[C@@H](NC(=O)[C@@H](NC(=O)CNC(=O)[C@@H](NC(=O)[C@@H](NC(=O)[C@@H](N)CO)[C@@H](C)CC)[C@@H](C)CC)[C@@H](C)CC)[C@@H](C)CC)C(=O)N[C@@H](CC(C)C)C(=O)NCC(=O)N[C@@H](CC(N)=O)C(=O)N[C@H](C(=O)N1CCC[C@H]1C(=O)N[C@@H](CCC(N)=O)C(=O)N[C@H](C(=O)N[C@H](C(=O)N[C@@H](CCC(N)=O)C(=O)N[C@H](C(=O)N[C@H](C(=O)N[C@@H](CCSC)C(=O)N[C@@H](CO)C(=O)N[C@H](C(=O)N[C@H](C(=O)N[C@@H](CCCCN)C(=O)N[C@@H](C)C(=O)N[C@@H](Cc1ccccc1)C(=O)N[C@@H](CCCCN)C(=O)NCC(=O)N[C@@H](CC(N)=O)C(=O)N[C@@H](CCCCN)C(=O)O)C(C)C)[C@@H](C)CC)[C@@H](C)CC)[C@@H](C)CC)[C@@H](C)CC)C(C)C)[C@@H](C)CC [Ece1-III] the CAK kinase activity was “activated gradually with increasing concentrations”.
